This note sets out measurements from PubChem BioAssay AID449728 (The Scripps Research Institute Molecular Screening Center, 2010).

Structures are written as SMILES. This is a selection; strong and weak results do not stand in their true shares. Calls of active or inactive are those of the source.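 How the source made its calls: active means inhibition above the campaign's mean inhibition across all tested compounds plus 3 SD (cut at about 9.9% in these data); inactive means the rest.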

The nature of the assay: E. coli V3065 growth inhibition, primary screen, counter-screen for AddAB inhibitor project, absorbance, OD600 (AID 449728).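 Further: uninfected addAB+ strain grown without phage in ampicillin broth; 0% = DMSO wells and 100% = ciprofloxacin 0.95 µg/ml wells.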 As to conditions: 18 h, at 11.9 µM, active compounds read high. In general terms: The purpose of a counterscreen is to sort out artefacts and off-target activity.
For `O=C(NCC1(N2CCCCC2)CCCCC1)c1cncc(Br)c1`, the inhibition – broadly, the relative decrease from the control value, in per cent – was inactive: -0.88%.
The same measure for `CN1CCC(Nc2cccc(F)c2)CC1`: inactive: -0.25%.
The value for `COc1cc(OC)c(C(=O)NCC2(N(C)C)CCCCC2)cc1OC` was inactive: 0%; that for `O=C(NCC1(N2CCOCC2)CCCCC1)c1cc(F)c(F)cc1Cl` was inactive: -0.44%; that for `CC(C)c1ccc(NC2CCN(C(=O)OC(C)(C)C)CC2)cc1` was inactive: 0%.
The same measure for `COc1ccc(CN(CCCl)CCCl)cc1Cl`: inactive: 0.37%; for `CN(C)c1cccc(C(=O)NCC2(N3CCCCC3)CCCCC2)c1`: inactive: -1.26%.
In the case of `COc1cc(C(=O)NCC2(N3CCCCC3)CCCCC2)ccc1OC(F)F`, the inhibition is inactive: 0.77%.
The same measure for `O=C(NCC1(N2CCOCC2)CCCCC1)c1cc(=O)[nH]c2ccccc12`: inactive: -1.19%; for `CN1CCN(CCOC(=O)C(O)(c2ccccc2)c2ccccc2)CC1`: inactive: 0.34%; for `COc1ccc(NC2CCN(C(=O)OC(C)(C)C)CC2)cc1`: inactive: 1.26%.
The value for `O=C(NCC1(N2CCCCC2)CCCCC1)c1cccc(C(F)(F)F)c1` was inactive: -1.46%; that for `CCN1CCC(Nc2ccc(Cl)cc2)CC1` was inactive: -0.69%.
The same measure for `N#CC1(Nc2ccccc2)CCN(CCc2ccccc2)CC1`: inactive: 1.18%; for `O=C(NCC1(N2CCCCC2)CCCCC1)c1cccc([N+](=O)[O-])c1`: inactive: 2.37%.
Take `O=C(NCC1(N2CCCCC2)CCCCC1)c1ccc(OC(F)F)cc1`: the inhibition is inactive: -0.25%.
The value for `CCOC(=O)N1CCC(Nc2cccc(C)c2)CC1` was inactive: -0.17%; that for `Cc1ccc(OCC(C)C)c(CN(CCCl)CCCl)c1` was inactive: -0.17%.
The value for `O=C(NCC1(N2CCCCC2)CCCCC1)c1ccc(F)cc1` was inactive: 0.76%; that for `COc1ccc(NC2CCN(CCc3ccccc3)CC2)c(OC)c1` was inactive: 0.83%; that for `CCOc1ccc(C)cc1CN(CCCl)CCCl` was inactive: -2.47%.
On to `O=C(OC1CN2CCC1CC2)C1c2ccccc2Oc2ccccc21` (stereo not drawn), for which the inhibition was inactive: -1.9%.
The same measure for `O=C(NCC1(N2CCCCC2)CCCCC1)c1ccc(Cl)s1`: inactive: 2.99%; for `N#CC1(Nc2ccccc2)CCN(Cc2ccccc2)CC1`: inactive: 0.41%; for `COc1ccc(Cl)cc1C(=O)NCC1(N2CCOCC2)CCCCC1`: inactive: -0.35%.
The value for `CCOC(=O)N1CCC(Nc2ccc(OC)cc2)CC1` was inactive: -1.22%.
The same measure for `O=C(NCC1(N2CCCCC2)CCCCC1)c1ccc(Cl)nc1`: inactive: -1.39%; for `Cc1cc(C)cc(N(C(=O)c2ccccc2)C2CCN(C(=O)OC(C)(C)C)CC2)c1`: inactive: -1.73%.
As for `O=C(NCC1(N2CCOCC2)CCCCC1)c1cc2ccccc2o1`, the inhibition was inactive: 1.02%.
The value for `CSc1ccccc1C(=O)NCC1(N2CCCCC2)CCCCC1` was inactive: -2.12%.
The same measure for `COc1ccc(C(=O)NCC2(N3CCCCC3)CCCCC2)cc1`: inactive: 3.14%; for `CC(C)(C)OC(=O)N1CCC(N(C(=O)c2ccccc2)c2ccc(F)cc2)CC1`: inactive: 1.17%.
The same measure for `COc1ccc(C(=O)NCC2(N3CCCCC3)CCCCC2)c(OC)c1OC`: inactive: -1.35%; for `O=C(NCC1(N2CCCCC2)CCCCC1)c1ccc(=O)[nH]c1`: inactive: 0.94%; for `O=C(NCC1(N2CCCCC2)CCCCC1)c1cccs1`: inactive: 0.84%.
Take `CN1CCC(Nc2ccc(Cl)cc2)CC1`: the inhibition is inactive: -0.52%.
The value for `CCCOc1ccc(C)cc1CN(CCCl)CCCl` was inactive: 1.96%; that for `COc1cc(OC)cc(C(=O)NCC2(N3CCOCC3)CCCCC2)c1` was inactive: -0.17%; that for `COc1cccc(C(=O)N(c2cc(C)cc(C)c2)C2CCN(C(=O)OC(C)(C)C)CC2)c1` was inactive: -0.63%.
The same measure for `CCC(CO)(C(=O)OC1CN2CCC1CC2)c1ccccc1` (stereo not drawn): inactive: 1.35%; for `CC(C)(C)OC(=O)N1CCC(Nc2ccccc2)CC1`: inactive: 0.51%.
As for `O=C(O)C1(Nc2ccccc2)CCN(Cc2ccccc2)CC1`, the inhibition is inactive: 1.81%.
The value for `CCCOc1ccc(C(=O)NCC2(N(C)C)CCCCC2)cc1` was inactive: 0%; that for `CCOc1ncccc1C(=O)NCC1(N2CCOCC2)CCCCC1` was inactive: -0.58%; that for `CN1CCC(Nc2ccc(F)c(Cl)c2)CC1` was inactive: 0.17%.
The same measure for `O=C(NCC1(N2CCCCC2)CCCCC1)c1ccco1`: inactive: -0.71%; for `CN(C)c1ccc(C(=O)NCC2(N3CCCCC3)CCCCC2)cc1`: inactive: -2.01%.
The same measure for `CCN1CCC(Nc2cccc(F)c2)CC1`: inactive: -1.21%.
With `Cc1ccc(C(=O)NCC2(N3CCCCC3)CCCCC2)o1`, the inhibition is inactive: -3.21%.
The value for `Fc1ccccc1NC1CCN(Cc2ccccc2)CC1` was inactive: 2.38%.
The same measure for `COc1cc(OC)cc(C(=O)NCC2(N3CCCCC3)CCCCC2)c1`: inactive: 1.45%; for `CN(C)C1(CNC(=O)c2cccc(C#N)c2)CCCCC1`: inactive: 1.09%.
The same measure for `c1ccc(CN2CCC(Nc3ccccc3)CC2)cc1`: inactive: -0.58%; for `CCCN1CCC(Nc2cc(OC)cc(OC)c2)CC1`: inactive: 1.03%.
On to `N#Cc1ccc(C(=O)NCC2(N3CCCCC3)CCCCC2)cc1`, for which the inhibition was inactive: -2.63%.
The same measure for `CC(C)(C)OC(=O)N1CCC(N(C(=O)c2ccccc2)c2ccc(Cl)cc2)CC1`: inactive: 1.72%; for `O=C(OC1CN2CCC1CC2)C1c2ccccc2C=Cc2ccccc21` (stereo not drawn): inactive: -1.66%.
For the compound `CCc1cc(C(=O)NCC2(N3CCCCC3)CCCCC2)sc1C`, the inhibition was inactive: 1.21%.
The same measure for `CCOC(=O)N1CCC(Nc2ccc(C)cc2)CC1`: inactive: -0.52%.
On to `N/C(=N\O)c1c(N)no[n+]1[O-]`, for which the inhibition was inactive: -0.18%.
The value for `COc1ccc(C(=O)NCC2(N3CCOCC3)CCCCC2)cc1OC` was inactive: 2.54%.
The value for `COc1cc(C(=O)NCC2(N3CCOCC3)CCCCC2)cc(OC)c1C` was inactive: 1.15%.
The same measure for `O=C(NCC1(N2CCOCC2)CCCCC1)c1cc(Br)ccc1Cl`: inactive: 0.35%.
